Reference: PubChem BioAssay AID504761 (Drosophila RNAi Screening Center, 2011)
The deposit covers about 22,000 reagents; shown is a random part of those that have a named target and a result. Of all reagents, 116 (0.52%) got an active call. 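Calls depend on retest data that are not deposited; infection was ranked per plate without normalising between plates; the unit of the infection score is not given.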 Raw values are not corrected between plates. No sequences are given here. The record does not give: the amount of reagent, the time to read-out.

Screen: 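Genome-wide fly cell screen for genes dengue virus requires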 (primary screen)
Cell system: D.Mel-2 cells from Drosophila
Knock-down reagent: long dsRNA against Drosophila genes
Treatment: infection with dengue virus type 2; dose and infection time not stated
Measured: 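Cells stained for dengue envelope protein and imaged; percent of infected cells per well on duplicate plates, ranked by infection, with stained nuclei counted for cell number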
Direction: infection score: higher = more virus-infected cells; cell count: higher = more cells in the well
Active means: 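Very low infection ranking in both replicate wells (chance probability at most 0.065), then a retest showing infection dropped 1.5-fold or more at p below 0.05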
Calls: active = confirmed: knock-down lowers infection; inactive = not picked or not confirmed

| gene | dsRNA | infection score, replicate 1 | infection score, replicate 2 | cell count, replicate 1 | cell count, replicate 2 | activity call |
| --- | --- | --- | --- | --- | --- | --- |
| nompB (no mechanoreceptor potential B) | DRSC03701 | 12.1 | 2.11 | 5989 | 6479 | inactive |
| nompB (no mechanoreceptor potential B) | DRSC03731 | 1.53 | 1.02 | 6734 | 7154 | inactive |
| CG6712 | DRSC02981 | 0.88 | 1.54 | 6488 | 6775 | inactive |
| CG6712 | DRSC21690 | 0.82 | 2.24 | 5701 | 5676 | inactive |
| CG6013 | DRSC15947 | 1.8 | 2.2 | 6286 | 6578 | inactive |
| CG6013 | DRSC29573 | – | 10 | 423 | 5379 | inactive |
| Pus7 (Pseudouridine synthase 7) | DRSC10703 | 2.51 | 1.54 | 6665 | 6686 | inactive |
| Pus7 (Pseudouridine synthase 7) | DRSC27484 | 10.9 | 7.86 | 5832 | 5837 | inactive |
| CG10959 | DRSC17769 | 11.9 | 4.53 | 6095 | 6295 | inactive |
| CG10959 | DRSC29120 | 21.5 | 8.15 | 3856 | 4390 | inactive |
| CG13728 | DRSC10056 | 6.45 | 7.69 | 6501 | 6824 | inactive |
| Six4 | DRSC11881 | 2.48 | 3.16 | 6645 | 6651 | inactive |
| Six4 | DRSC29889 | 33.2 | 9.08 | 5952 | 5890 | inactive |
| CG14538 (retired record) | DRSC02396 | 3.94 | 4.45 | 6147 | 6625 | inactive |
| CG14538 (retired record) | DRSC29424 | 32.4 | 4.25 | 5444 | 895 | inactive |
| Axud1 (AXIN1 up-regulated 1) | DRSC00270 | 6.16 | 3.07 | 6265 | 6255 | inactive |
| ds (dachsous) | DRSC00815 | 2.41 | 1.87 | 6225 | 6137 | inactive |
| CR31032 (pseudo) | DRSC22457 | 3.45 | 6.72 | 6371 | 6023 | inactive |
| CR31032 (pseudo) | DRSC25512 | 7.67 | 2.95 | 5982 | 6101 | inactive |
| Taf5 (TBP-associated factor 5) | DRSC07562 | 22.9 | 10.5 | 5485 | 5999 | inactive |
| Taf5 (TBP-associated factor 5) | DRSC29351 | 28.4 | 16.6 | 4294 | 4545 | inactive |
| RhoBTB (Rho-related BTB domain containing) | DRSC11877 | – | 22.6 | 439 | 6150 | inactive |
| CG13306 | DRSC09976 | 2.09 | 0.31 | 6035 | 6712 | inactive |
| CG5758 | DRSC02889 | 1.24 | 12.8 | 887 | 5269 | inactive |
| CG5758 | DRSC02890 | 4.66 | 9.45 | 1673 | 5997 | inactive |
| CG5758 | DRSC29658 | – | 23.1 | 312 | 5689 | inactive |

Targets listed so far whose gene name starts with T or t:
| gene | dsRNA | infection score, replicate 1 | infection score, replicate 2 | cell count, replicate 1 | cell count, replicate 2 | activity call |
| --- | --- | --- | --- | --- | --- | --- |
| Taf5 (TBP-associated factor 5) | DRSC07562 | 22.9 | 10.5 | 5485 | 5999 | inactive |
| Taf5 (TBP-associated factor 5) | DRSC29351 | 28.4 | 16.6 | 4294 | 4545 | inactive |

The results go on.
| gene | dsRNA | infection score, replicate 1 | infection score, replicate 2 | cell count, replicate 1 | cell count, replicate 2 | activity call |
| --- | --- | --- | --- | --- | --- | --- |
| CG31862 | DRSC01245 | 3.69 | 1.11 | 6279 | 6334 | inactive |
| CG17715 | DRSC11950 | 14.1 | 17.8 | 6110 | 5067 | inactive |
| alpha-Est10 (alpha-Esterase-10) | DRSC12613 | 0.7 | 1.57 | 6408 | 6238 | active |
| alpha-Est10 (alpha-Esterase-10) | DRSC25456 | 4.43 | 1.77 | 6213 | 6155 | inactive |
| phtf | DRSC05023 | 16.9 | 16.1 | 5750 | 5758 | inactive |
| phtf | DRSC28441 | 10.3 | 23.9 | 3577 | 5946 | inactive |
| CG13036 (retired record) | DRSC09916 | 1 | 1.9 | 6404 | 6418 | inactive |
| CG32628 (retired record) | DRSC19405 | 15.1 | 14.8 | 5910 | 6014 | inactive |
| CG31245 | DRSC15498 | 2.05 | 7.35 | 6829 | 6694 | inactive |
| GstD9 (Glutathione S transferase D9) | DRSC14185 | 4.52 | 2.37 | 6770 | 6907 | inactive |
| GstD9 (Glutathione S transferase D9) | DRSC25307 | 1.49 | 1.73 | 5969 | 6592 | inactive |
| TwdlC (TweedleC) | DRSC14749 | 0.99 | 2.85 | 6293 | 6431 | inactive |
| TwdlC (TweedleC) | DRSC25255 | 8.98 | 9.01 | 7186 | 6716 | inactive |
| CG10943 | DRSC09805 | 1.98 | 1.26 | 5868 | 6212 | inactive |
| CG10943 | DRSC29258 | 16.3 | 20.2 | 5478 | 5182 | inactive |
| CG13587 | DRSC04223 | 8.76 | 8.83 | 6665 | 6613 | inactive |
| CG13587 | DRSC29632 | 9.58 | 9.96 | 5826 | 5462 | inactive |
| CG18094 | DRSC02655 | 7.88 | 2.71 | 4934 | 6277 | inactive |
| Cnx99A (Calnexin 99A) | DRSC25426 | 9.54 | 8.57 | 5878 | 6287 | inactive |
| CG31200 | DRSC15285 | 3.76 | 5.03 | 6463 | 6405 | inactive |
| CG14537 | DRSC02395 | 3.27 | 4.01 | 5837 | 6407 | inactive |
| CG1074 | DRSC12143 | 1.94 | 2.43 | 6539 | 6706 | inactive |
| CG1074 | DRSC29045 | 12.9 | – | 2301 | 316 | inactive |
| Nprl2 (Nitrogen permease regulator-like 2) | DRSC20153 | 3.35 | 3.78 | 6114 | 6191 | inactive |
| pyd3 | DRSC15459 | 2.98 | 3.45 | 7072 | 7365 | inactive |
| pyd3 | DRSC21640 | 2.89 | 1.9 | 6011 | 6377 | inactive |
| Mrp5 (Multidrug resistance protein 5) | DRSC15597 | 27 | 4.05 | 5641 | 6989 | inactive |
| Mrp5 (Multidrug resistance protein 5) | DRSC15598 | 17.5 | 15.3 | 5677 | 2443 | inactive |
| Mrp5 (Multidrug resistance protein 5) | DRSC25669 | 9.05 | 8.87 | 6541 | 6302 | inactive |
| CG34398 | DRSC01052 | 0.6 | 3.92 | 5998 | 6710 | inactive |
| CG34398 | DRSC02511 | 37.4 | 41.5 | 4695 | 4673 | inactive |
| CG34398 | DRSC03228 | 1.14 | 2.05 | 6672 | 6842 | inactive |
| CG34398 | DRSC23293 | 2.79 | 14.5 | 6411 | 5975 | inactive |
